How the values were obtained:
HBeAg = settings: CC50/IC50 for HBeAg, HepG 2.2.15 cells
Experimental: (§1) These synthesized compounds were evaluated for anti-HBV activity with referring to reported method. The HepG2.2.15 cell, a human hepatoblastoma cell line stably transfected with cloned HBV DNA, was obtained from Chinese Academy of Medical Sciences (Beijing, China), and was cultured in Dulbecco’s Modified Eagle’s Medium (DMEM) supplemented with 10% fetal bovine serum and 1.5 g/L of sodium bicarbonate, 10 mL/L of streptomycin, 10 mL/L of penicillin, and 200 mg/L of G418 at 37 °C in a 5% CO2 atmosphere with 95–98% humidity. Then, HepG2.2.15 cell was plated at a density of 1 × 10^5 cells/mL in 96-well plates and incubated at 37 °C for 24 h and then treated with variant concentration of compounds in […]; every three days, in a nine day period, C (OD) values were recorded at 450 nm. After nine days, the percent of cell death was measured using the method of MTT assay after drug treatment. Cytotoxicity of these compounds was expressed as the concentration of compound required to kill 50% (CC50) of the HepG 2.2.15 cells.
(§2) Method for the HBsAg and HBeAg Inhibition Assays. The levels of HBV surface antigen (HBsAg) and HBV e antigen (HBeAg) in the supernatant of the HepG2.2.15 cells were determined by the enzyme-linked immunosorbent assay (ELISA) according to the manufacturer’s protocol (Shanghai Kehua Biotech Co., Ltd., Shanghai, China). The synthesized compounds were expressed as the concentration that achieved 50% inhibition (IC50) to the secretion of HBsAg and HBeAg. The selectivity index (SI) was determined as the ratio of CC50 to IC50 which a major pharmaceutical parameter of estimates possible future clinical application.

HBsAg = settings: CC50/IC50 for HBsAg, HepG 2.2.15 cells
Experimental: as §1, §2

Row | Substance | HBeAg SI (selectivity index = CC50/IC50) (HBeAg) | HBsAg SI (selectivity index = CC50/IC50) (HBsAg)
1 | Cyclohexyl (E)-4-hydroxyimino-4-(4-chlorophenyl)butanimidate [Compound 4D-1] | 1.06 | 1.13
2 | Cyclohexyl (E)-4-methoxyimino-4-(4-methoxyphenyl)butanoate [Compound 4B-2] | 17.34 | 13.41

— PMC6600592, “Design, Synthesis, and Bioactive Screen In Vitro of Cyclohexyl (E)-4-(Hydroxyimino)-4-Phenylbutanoates and Their Ethers for Anti-Hepatitis B Virus Agents” (Molecules, 2019)
